These results are taken from PubChem BioAssay AID485275 (NMMLSC, 2010).

The list shows a part of the results, in another mix than the full data. Calls of active or inactive are those of the source.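 The calls were made as follows: active = plate passing quality check with inhibition over a set limit, or well fluorescence over plate mean plus 4 SD; inactive = the rest.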

This test can be described thus: antifungal drug efflux pump blockers, triplex strains – S. cerevisiae, Nile Red, multiplex, primary screen (AID 485275).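 Also: Nile Red retained in pooled yeast measured as flow cytometry median fluorescence; 0% = buffer negative control and 100% = Enniatin B positive control; higher means more Nile Red kept so more efflux inhibition.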 Conditions: S. cerevisiae Candida pump triplex, at 10 µM, stronger effect = higher value.
As for `ClCCSc1nnc(-c2cccnc2)o1`, the inhibition is inactive: -0.12%.
